The target in experiment [1] is T1, MtbSenX3-mClover, unphosphorylated (M. tuberculosis, UniProt P9WGK5 67-410).
T1 sequence: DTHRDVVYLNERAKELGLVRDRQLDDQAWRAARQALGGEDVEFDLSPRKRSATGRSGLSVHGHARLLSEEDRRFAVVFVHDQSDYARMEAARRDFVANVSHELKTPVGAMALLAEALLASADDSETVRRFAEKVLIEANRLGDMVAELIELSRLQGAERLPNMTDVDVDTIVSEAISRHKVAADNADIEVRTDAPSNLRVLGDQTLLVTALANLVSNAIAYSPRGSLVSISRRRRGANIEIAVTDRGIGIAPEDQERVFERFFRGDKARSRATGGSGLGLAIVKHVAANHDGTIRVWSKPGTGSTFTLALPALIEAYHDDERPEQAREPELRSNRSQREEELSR
As to the kind of experiment: MST.

The target in experiment [2] is T2, MtbSenX3-mClover, phosphorylated (M. tuberculosis, UniProt P9WGK5 67-410, phosphorylated state of the SK (residue number not given)).
T2 sequence: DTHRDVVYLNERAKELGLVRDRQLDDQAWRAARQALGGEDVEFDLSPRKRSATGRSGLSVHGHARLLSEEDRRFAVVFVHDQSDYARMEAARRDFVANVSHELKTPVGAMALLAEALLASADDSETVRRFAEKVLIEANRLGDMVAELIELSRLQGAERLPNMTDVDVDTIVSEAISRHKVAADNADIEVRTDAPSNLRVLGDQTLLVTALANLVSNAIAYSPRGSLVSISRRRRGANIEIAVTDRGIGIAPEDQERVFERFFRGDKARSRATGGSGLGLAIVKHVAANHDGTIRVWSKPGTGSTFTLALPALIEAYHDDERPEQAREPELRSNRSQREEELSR
As to the kind of experiment: MST.

B1: M. tuberculosis MutT1 (MtbMutT1), wild type (enzyme)
chain: not shown
B1: the Kd (commonly the equilibrium constant for the complex coming apart) in experiment [1] was 425 ± 130 nM; in experiment [2] it was 223 ± 98.2 nM.

Values taken from article doi:10.1101/2025.03.06.641775 (bioRxiv, 2025).
